# Measured values from patent US20110112032A1, “Regulation of Brain Natriuretic Peptide and Catecholamines for the Treatment of Cardiovascular Diseases” (priority 2005, published 2011).
# System: intrinsic cardiac adrenergic cells
substance,measurement,value
w-Conotoxin,effect on [Ca2+]i transients of intrinsic cardiac adrenergic cells,did not affect
